Fold change is the IC50 on the isolate divided by the IC50 on a reference virus; 1 = unchanged, higher = more resistant. Changes are given against the subtype B consensus. No active / inactive call. The values were gathered from many studies (numbered anew) with different assays, which the source does not name. Most viruses are clinical isolates; some are laboratory strains or clones with known resistance changes. Isolates with mixed residues are left out; stretches that were not sequenced show no change. Round top values that many isolates share are read here as limits; other very high values and 0.1 may be limits too.
Tests used:
Test in all cases: fold change of IC50 against reference virus; higher = more resistant
[1] = compound: C[C@H](Cn1cnc2c(N)ncnc21)OCP(=O)(O)O [tenofovir]
Method: (§1)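 Cell-culture drug susceptibility tests of virus bearing the reverse transcriptase of each isolate, gathered from many studies.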

[2] = compound: Nc1nc(NC2CC2)c2ncn([C@H]3C=C[C@@H](CO)C3)c2n1 [abacavir]
Method: as §1

[3] = compound: Cc1cn([C@H]2C[C@H](N=[N+]=[N-])[C@@H](CO)O2)c(=O)[nH]c1=O [zidovudine]
Method: as §1

[4] = compound: O=C1Nc2ccc(Cl)cc2[C@@](C#CC2CC2)(C(F)(F)F)O1 [efavirenz]
Method: as §1

[5] = compound: Nc1ccn([C@H]2CC[C@@H](CO)O2)c(=O)n1 [zalcitabine]
Method: as §1

[6] = compound: CC(C)Nc1cccnc1N1CCN(C(=O)c2cc3cc(NS(C)(=O)=O)ccc3[nH]2)CC1 [delavirdine]
Method: as §1

[7] = compound: O=c1[nH]cnc2c1ncn2[C@H]1CC[C@@H](CO)O1 [didanosine]
Method: as §1

[8] = compound: Cc1cn([C@H]2C=C[C@@H](CO)O2)c(=O)[nH]c1=O [stavudine]
Method: as §1

[9] = compound: Cc1ccnc2c1NC(=O)c1cccnc1N2C1CC1 [nevirapine]
Method: as §1

Test System | fold change of IC50 against reference virus [1] | fold change of IC50 against reference virus [2] | fold change of IC50 against reference virus [3] | fold change of IC50 against reference virus [4] | fold change of IC50 against reference virus [5] | fold change of IC50 against reference virus [6] | fold change of IC50 against reference virus [7] | fold change of IC50 against reference virus [8] | fold change of IC50 against reference virus [9]
HIV-1 isolate 16 (reverse transcriptase changes: A62V V75I F77L F116Y K122E Q151M M184V F214L A272P K277R, study 138) | 0.9 | 15.1 | 244 | 1.3 | 45.2 | 3 | 19.7 | 10.9 | 1.3
HIV-1 isolate 52 (reverse transcriptase changes: V35I S48T D67N T69N K70R K122E M184V G196E H208Y T215F D218E K219Q V245M A272P A288T, study 121) | 0.8 | 5.5 | 3.1 | 0.2 | 2.1 | 0.3 | 1.8 | 1.8 | 0.3
HIV-1 isolate 121 (reverse transcriptase changes: K122E F214L A272P K277R A376T A400T D460N S468T H483Y K512Q S519N, study 94) | 1 |  | 1 |  | 1 |  | 1 | 1 | 
HIV-1 isolate 181 (reverse transcriptase changes: K65R K122E M184V F214L A272P K277R M357T A376T A400T N447S D460N S468T S519N, study 63) | 1.2 | 10 | 0.3 |  | 4.6 |  | 3.6 | 1 | 
HIV-1 isolate 232 (reverse transcriptase changes: K122E M184V F214L A272P K277R M357T A376T A400T N447S D460N S468T S519N, study 63) | 0.5 | 3.9 | 0.3 |  | 2 |  | 1.4 | 0.9 | 
HIV-1 isolate 432 (reverse transcriptase changes: Y115F K122E F214L A272P K277R M357T A376T A400T N447S D460N S468T S519N, study 63) | 1.3 | 2.8 | 0.9 |  | 0.6 |  | 0.8 | 0.8 | 
HIV-1 isolate 497 (reverse transcriptase changes: K122E F214L A272P K277R M357T A376T A400T N447S D460N S468T S519N, study 63) | 0.9 | 0.9 | 0.8 |  | 0.9 |  | 0.8 | 0.8 | 
HIV-1 isolate 816 (reverse transcriptase changes: K20R E28K K32E V35R M41L E44D D67N K103N D123E I135M P157A K166R D177E M184V G196E T200A L210W R211K T215Y V245E E297K, study 15) | 4.3 | 5.9 |  | 28 | 3.2 | 21 | 1.8 | 3.2 | 76
HIV-1 isolate 1001 (reverse transcriptase changes: K65R K122E F214L A272P K277R M357T A376T A400T N447S D460N S468T S519N, study 63) | 2.1 | 3 | 0.5 |  | 2.6 |  | 2.1 | 1.8 | 
HIV-1 isolate 1066 (reverse transcriptase changes: K70E K122E F214L A272P K277R A376T A400T D460N S468T H483Y K512Q S519N, study 94) | 1.2 |  | 0.5 |  | 0.7 |  | 1 | 1.1 | 
HIV-1 isolate 1142 (reverse transcriptase changes: Y115F K122E M184V F214L A272P K277R M357T A376T A400T N447S D460N S468T S519N, study 63) | 0.9 | 9.8 | 0.7 |  | 2 |  | 2 | 0.9 | 
HIV-1 isolate 1147 (reverse transcriptase changes: L74V K122E M184V F214L A272P K277R M357T A376T A400T N447S D460N S468T S519N, study 63) | 0.4 | 8.5 | 0.3 |  | 2.5 |  | 2.4 | 0.9 | 
HIV-1 isolate 1149 (reverse transcriptase changes: K65R L74V K122E M184V F214L A272P K277R M357T A376T A400T N447S D460N S468T S519N, study 63) | 0.9 | 12 | 0.3 |  | 4.4 |  | 6.7 | 1.2 | 
HIV-1 isolate 1462 (reverse transcriptase changes: L74V K122E F214L A272P K277R M357T A376T A400T N447S D460N S468T S519N, study 63) | 0.6 | 2.1 | 0.4 |  | 1.6 |  | 1.5 | 1.1 | 

Source: the supplement of paper PMC3578754
